Values from PubChem BioAssay AID504761 (Drosophila RNAi Screening Center, 2011)
Screen: 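Fly genes whose silencing reduces dengue virus type 2 infection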 (primary screen). Cells: D.Mel-2 cells from Drosophila. Knock-down reagent: long dsRNA against Drosophila genes. Treatment: infection with dengue virus type 2; dose and infection time not stated. Measurement: 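Per well on two replicate plates, imaging gave the percent of cells positive for viral envelope protein, ranked by infection, and a nuclear count of cells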. Direction: infection score: higher = more virus-infected cells; cell count: higher = more cells in the well. Call rule: 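Very low infection ranking in both replicate wells (chance probability at most 0.065), then a retest showing infection dropped 1.5-fold or more at p below 0.05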. Meaning of the calls: active = confirmed: knock-down lowers infection; inactive = not picked or not confirmed.
The screen tested about 22,000 reagents; shown is an unselected part of those with a known target gene and a result. In the full data, 116 (0.52%) are marked active. 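Calls depend on retest data that are not deposited; infection was ranked per plate without normalising between plates; the unit of the infection score is not given.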 Raw values vary from plate to plate and are shown uncorrected. A plus sign joins genes that one reagent is predicted to hit. Not given: the amount of reagent, the time to read-out.

no.	gene	amplicon	infection score, replicate 1	infection score, replicate 2	cell count, replicate 1	cell count, replicate 2	outcome
1	PIG-Wa (Phosphatidylinositol glycan anchor biosynthesis class W a)	DRSC00728	2.57	1.82	6307	6493	inactive
2	NANS (N-acetylneuraminic acid synthase)	DRSC15743	6.07	4.63	5222	6002	inactive
3	NANS (N-acetylneuraminic acid synthase)	DRSC27626	2.45	18.6	6600	2927	inactive
4	CG10182	DRSC14202	6.17		1718	265	inactive
5	CG10182	DRSC25451	5.37	7.65	6662	6524	inactive
6	CG33340	DRSC14615	9.35	1.9	5252	6726	inactive
7	CG33340	DRSC26638	5.09	13.3	6618	6268	inactive
8	Pos (Poseidon)	DRSC15415			306	232	inactive
9	CR33294 (pseudo)	DRSC22950	0.66	2.34	6544	6832	inactive
10	shf (shifted)	DRSC18283	2.84	1.69	6714	6706	inactive
11	shf (shifted)	DRSC24224	1.75	3.57	6499	5742	inactive
12	HINT1 (histidine triad nucleotide binding protein 1)	DRSC26502	4.5	2.61	6179	6010	inactive
13	PGAP1 (Post-GPI attachment to proteins 1)	DRSC18286	1.42	21.2	6284	6179	inactive
14	PGAP1 (Post-GPI attachment to proteins 1)	DRSC28989	2.89	9.1	1524	6516	inactive
15	CG42329	DRSC00373	3.2	5.19	6777	7091	inactive
16	CG42329	DRSC00682	4.95	1.5	6652	6750	inactive
17	Smyd4-4 (SET and MYND domain containing, class 4, member 4)	DRSC05956	18.9	14.9	5403	6420	inactive
18	Jhbp13 (Juvenile hormone binding protein 13)	DRSC02913	6.23	5.12	6855	6932	inactive
19	RagA-B (Ras-related GTP binding A/B)	DRSC14450	2.44	6.32	6520	7042	inactive
20	CR11023 (pseudo)	DRSC00302	11.2	7.6	6659	6935	inactive
21	CR11023 (pseudo)	DRSC28266	16.6	18.6	5217	4794	inactive
22	ClC-c (Chloride channel-c)	DRSC10499	9.64	3.22	3038	6176	inactive
23	ap (apterous)	DRSC04917	10.4	35.4	6022	5143	inactive
24	CG13048	DRSC09929	1.08	1.59	6139	6279	inactive
25	CG13048	DRSC26938	11.4	3.73	5808	5899	inactive
26	CG11608	DRSC14334	1.06	6.51	6220	6648	inactive
27	Or85e (retired record)	DRSC16768	11.5	23.2	6620	6189	inactive
28	CG8303	DRSC07140	20.6	7.35	5989	6684	inactive
29	CG1552	DRSC19665	8.64	6.41	6319	6446	inactive
30	CG1552	DRSC25533	2.53	3.03	6174	5964	inactive
31	l(2)09851 (lethal (2) 09851)	DRSC04858	3.67	6.4	6508	6423	inactive
32	Myo28B1 (Myosin 28B1)	DRSC03375	5.92	0.62	6110	6486	inactive
33	Myo28B1 (Myosin 28B1)	DRSC28780	10.7	8.47	3226	3366	inactive
34	baf (barrier to autointegration factor)	DRSC03051	1.23	3.12	6033	6320	inactive
35	baf (barrier to autointegration factor)	DRSC26974	13	6.68	5599	6434	inactive
36	CG4686	DRSC15622	0.19	10.5	529	5381	inactive
37	CG13245	DRSC02243	9.71	15.9	6467	6458	inactive

Entries listed so far whose target name starts with N or n:
gene	amplicon	infection score, replicate 1	infection score, replicate 2	cell count, replicate 1	cell count, replicate 2	outcome
NANS (N-acetylneuraminic acid synthase)	DRSC15743	6.07	4.63	5222	6002	inactive
NANS (N-acetylneuraminic acid synthase)	DRSC27626	2.45	18.6	6600	2927	inactive

The listing continues:
no.	gene	amplicon	infection score, replicate 1	infection score, replicate 2	cell count, replicate 1	cell count, replicate 2	outcome
38	CG3544	DRSC00613	2.28	0.97	5885	6791	inactive
39	CG1889	DRSC18195	3.48	3.98	6618	6556	inactive
40	CG1889	DRSC27433	25.8	6.3	6180	6399	inactive
41	wnd (wallenda)	DRSC11046	4.35	11.2	6367	7031	inactive
42	wnd (wallenda)	DRSC21373	1.94	2.27	6129	6401	inactive
43	CG7386	DRSC10832	0.95	3.26	6441	5885	inactive
44	CG7386	DRSC29368	20.5	4.04	6319	1040	inactive
45	lncRNA:CR31526 (long non-coding RNA:CR31526)	DRSC21520	1.8	2.33	6050	6062	inactive
46	lncRNA:CR31526 (long non-coding RNA:CR31526)	DRSC26871	7.08	5.09	6289	6657	inactive
47	CG14630	DRSC18166	3.17	1.12	6365	6680	inactive
48	CG14630	DRSC18653	1.35	2.24	5983	6032	inactive
49	CG6834	DRSC16125	11.8	4.72	5855	6444	inactive
50	CG6834	DRSC29321		1.83	270	601	inactive
51	CG15861	DRSC04274	3.58	35.5	6648	4869	inactive
52	CG15861	DRSC29309			282	334	inactive
53	BORCS7 + CG13430	DRSC06392	6.67	12.2	6234	5072	inactive
54	BORCS7 + CG13430	DRSC06707	3.49	2.79	6328	6353	inactive
55	Hap40 (Huntingtin-associated protein 40 kDa)	DRSC20085	0.85	5.25	6562	6285	inactive
56	Hap40 (Huntingtin-associated protein 40 kDa)	DRSC26124	12.5	5.22	5396	6304	inactive
57	CG2256	DRSC18220	1.54	1.23	6296	6566	inactive
58	CG2256	DRSC28187	25.9	15.7	6061	4368	inactive
59	CG42404	DRSC15558	1.15	3.99	6462	6436	inactive
60	Cnot4 (CCR4-NOT transcription complex subunit 4)	DRSC02830	4.05	3.88	5771	5493	inactive
61	Cnot4 (CCR4-NOT transcription complex subunit 4)	DRSC02831	7.38	15.6	5259	4865	inactive
62	Arp53D (Actin-related protein 53D)	DRSC05923	27.1	16.2	5550	6963	inactive
63	sktl (skittles)	DRSC04715	7.83	30.4	5928	5325	inactive
64	xmas	DRSC21306	16	9.11	5477	4753	inactive
65	xmas	DRSC22178	8.68	1.95	5645	6349	inactive
66	CG5892	DRSC15910	13.7	1.44	4982	5908	inactive
67	CG5892	DRSC24710	2.25	8.86	6799	5296	inactive
68	CG9861	DRSC04576	10	24.6	6273	5661	inactive
69	CG9861	DRSC28876	15.6	24.2	5134	5278	inactive
70	CG5250	DRSC15752	1.28	3.16	6584	6560	inactive
71	Pof (Painting of fourth)	DRSC04405	30.2	47.5	6228	5215	inactive
72	Obp50b + Obp50c	DRSC21818	4.64	13.9	6631	3911	inactive
73	CG9400	DRSC20182	3.39	2.83	5986	6113	inactive
74	CG1236	DRSC12203	1.33	4.95	6866	6713	inactive
